Consider one substance from PMC11943507 (Marine Drugs, 2025).

Assay [1] concerns the target T1, hNav1.1 (Homo sapiens, UniProt P35498). Nature of the assay: Initial screening of agonists (single concentration, fluorescence enhancement). The class given is cell-based. The note with it: 500 nM toxin; HHBS negative control, 30 μM veratridine positive control.
The target in assay [2] is T1, hNav1.1. The conditions noted are these: hNav1.1-CHO cells, agonist mode, fluorescence.

Usually EC50 stands for the concentration giving half of the maximal effect. Low readings indicate an effect from little substance, high ones a need for much substance.

Turning to brevetoxin1, the “agonist activity in initial screening” value in assay [1] was “significant agonist activity”. This substance also gave an EC50 in assay [2] of 8.47 nM.
